# PubChem BioAssay AID504761, Drosophila RNAi Screening Center – 2011
# Screen: 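Insect host genes that dengue virus relies on to spread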 (primary screen)
# Cells: D.Mel-2 cells from Drosophila
# Knock-down reagent: long dsRNA against Drosophila genes
# Conditions: infection with dengue virus type 2; dose and infection time not stated
# Detection: 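Cells stained for dengue envelope protein and imaged; percent of infected cells per well on duplicate plates, ranked by infection, with stained nuclei counted for cell number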
# Scale: infection score: higher = more virus-infected cells; cell count: higher = more cells in the well
# Rule for the call: 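Low infection ranks in the two replicates (chance level up to 0.065) followed by a retest with a 1.5-fold or larger significant decrease, p below 0.05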
# Calls: active = confirmed: knock-down lowers infection; inactive = not picked or not confirmed
# The screen tested about 22,000 reagents; shown is a random part of those that have a named target and a result. In the full data, 116 (0.52%) got an active call. 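Calls depend on retest data that are not deposited; infection was ranked per plate without normalising between plates; the unit of the infection score is not given.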 The raw values are shown without normalisation. The numbers tell different reagents against one gene apart. Names joined by + are all predicted targets of the reagent. No sequences are given here. Not stated in the record: the amount of reagent, the time to read-out.
gene knocked down,reagent no.,"infection score, replicate 1","infection score, replicate 2","cell count, replicate 1","cell count, replicate 2",outcome
CG11475,1,21.9,47.5,6141,4423,inactive
CG11475,2,5.6,3.1,6405,6327,inactive
Hsc70-3,1,0.2,0.36,1483,1390,inactive
Hsc70-3,2,0.68,0.84,4124,4027,inactive
CG8229 + CG33199,1,0.9,1.78,6581,6364,inactive
CG8229 + CG33199,2,9.32,16.9,6350,6083,inactive
dachs,1,4.28,8.34,6334,3909,inactive
dachs,2,5.12,6.09,6186,6483,inactive
dachs,3,14.2,1.3,6300,5916,inactive
dachs,4,7.23,6.97,5451,3014,inactive
CG2767,1,17.2,14,4380,6241,inactive
CG2767,2,15.8,4.4,6777,6226,inactive
dpr8,1,6.15,9.38,2163,5749,inactive
dpr8,2,31.8,25.4,5524,5946,inactive
dpr8,3,19.4,15.6,5517,5424,inactive
dpr8,4,11.9,12.4,5682,5731,inactive
CG31683 + CG18858,1,4.3,1.88,6216,6698,inactive
betaNACtes3,1,22.3,27,5736,5797,inactive
CG33992 (retired record) + CG43755,1,1.41,0.57,6169,6470,inactive
Picot,1,16.8,20,6187,4112,inactive
Picot,2,14.5,1.74,5865,6269,inactive
ppk17,1,3.22,3.58,6372,6344,inactive
CG13407,1,18.4,6.64,4039,6127,inactive
CG13407,2,3.61,14.1,6530,6303,inactive
CG32225,1,0.89,0.92,5736,6212,inactive
CG32225,2,8.04,13.1,5959,5995,inactive
Tmem43,1,10.2,8.84,6439,6051,inactive
Tmem43,2,5.47,4.94,5393,6538,inactive
CG8839,1,10,31.6,5591,5749,inactive
CG5623,1,5.3,22,6320,4047,inactive
CG10845,1,0.92,5.76,5987,5087,inactive
Rpp30,1,2.66,22.2,5946,5054,inactive
Rgl,1,0.65,2.99,6351,6425,inactive
GstE9,1,4.83,7.55,6125,4877,inactive
GstE9,2,14.3,9.53,5864,2444,inactive
CG3224,1,5.85,6.87,6569,6450,inactive
CG9222,1,11.8,0.9,5443,6435,inactive
Ir94c,1,6.12,2.76,5943,4859,inactive
CG8036,1,4.97,7.07,6202,2037,inactive
RNASEK,1,1.38,6.05,5275,2051,inactive
CG7394,1,9.3,9.85,5451,6419,inactive
CG31525,1,0.82,0.7,6363,6244,inactive
CG30413,1,0.67,0.19,6310,6164,inactive
CG30413,2,14.2,6.68,3489,5449,inactive
LSm7,1,9.77,17.9,5058,5132,inactive
CG11089 + CG31381,1,5.49,4,6107,4130,inactive
CG11089 + CG31381,2,15.2,7.46,5604,6807,inactive
CG11089 + CG31381,3,17.7,5.4,6683,6476,inactive
CG30284,1,6.74,11.1,6438,5793,inactive
CG14817,1,,12.7,347,1712,inactive
CG34396,1,23.5,33.1,6593,5335,inactive
CG34396,2,25.8,12.8,6414,6135,inactive
CG34396,3,,7.13,335,897,inactive
CG2150,1,14.6,8.79,6270,6142,inactive
TTLL12,1,6.85,19.8,3826,2172,inactive
CG14752,1,6.2,4.61,6357,6681,inactive
Mcm7,1,6.71,6.57,4146,4565,inactive
Mcm7,2,7.39,3.96,4899,5095,inactive
heix,1,16.3,10.1,6168,6100,inactive
CG8065,1,2.59,3.62,5822,5972,inactive
olf186-M,1,6.27,11.1,7076,6604,inactive
Lcp65Ag3 + Lcp65Ag2 + Lcp65Ag1,1,3.05,3.82,6123,5687,inactive
Lcp65Ag3 + Lcp65Ag2 + Lcp65Ag1,2,2.03,4.13,5961,5974,inactive
dpr2,1,9.62,3.54,6289,6162,inactive
dpr2,2,4.41,1.44,6082,6589,inactive
CG13059,1,2.74,3.44,4784,6199,inactive
Paip1,1,8.12,13.2,5790,5693,inactive
Paip1,2,7.04,7.75,5951,5199,inactive
Lac,1,20.8,19,4531,5906,inactive
CG9674,1,7.43,5.4,5986,6668,inactive
CG9674,2,2.83,1.65,5644,6466,inactive
Adar,1,8.2,12.2,2574,583,inactive
Eo,1,,10.8,370,1599,inactive
Eo,2,5.89,6.2,6211,5984,inactive

Records listed so far whose gene name begins with D or d (10):
gene knocked down,reagent no.,"infection score, replicate 1","infection score, replicate 2","cell count, replicate 1","cell count, replicate 2",outcome
dachs,1,4.28,8.34,6334,3909,inactive
dachs,2,5.12,6.09,6186,6483,inactive
dachs,3,14.2,1.3,6300,5916,inactive
dachs,4,7.23,6.97,5451,3014,inactive
dpr8,1,6.15,9.38,2163,5749,inactive
dpr8,2,31.8,25.4,5524,5946,inactive
dpr8,3,19.4,15.6,5517,5424,inactive
dpr8,4,11.9,12.4,5682,5731,inactive
dpr2,1,9.62,3.54,6289,6162,inactive
dpr2,2,4.41,1.44,6082,6589,inactive
